Consider one compound from ChEMBL document CHEMBL3046315, “Synthesis and Fungicidal Activity of New Thiophosphorylated Monoterpenoids and Related Compounds” (1996).

This is a selection: effects in other tests are not listed, and their absence says nothing.

Assay [1] deals with Pythium. Kind of assay: Fungicidal activity against Pythium sp. assessed as growth inhibition at 100 ppm after 5 days by agar dilution test.
Assay [2] concerns Athelia rolfsii. Kind of assay: Fungicidal activity against Athelia rolfsii assessed as growth inhibition at 100 ppm after 5 days by agar dilution test. (In general: In agar dilution the substance is mixed into plates at graded concentrations.)

As for `CC(C)=CCCC(C)CCOP(=S)(OCCC(C)CCC=C(C)C)c1ccccc1` (configuration not stated), the growth inhibition (GI) was found to be 11.4% in assay [1] and 5.1% in assay [2].
